Anti-infective test results gathered from many reports (values: NIAID ChemDB through PubChem).

Common to all: host cell toxicity; cells: L929; endpoint: CC50

Rows are shuffled and stem from different studies. CCn is the concentration with n% toxicity to the cells.

SMILES | result
N#Cc1c(SCCCCBr)nsc1-c1ccccc1 | 25 µg/mL
ClCN1CC[N+]2(CC1)CC[N+]1(CCN(CCl)CC1)CC2 | 437.3 µg/mL
CCCSc1nsc(-c2ccccc2)c1C(=O)O | 500 µg/mL
Nc1[nH]n2c(=O)cc(CN3CC[N+]4(CC3)CC[N+]3(CCN(Cc5cc(=O)n6[nH]c(N)c([N+](=O)[O-])c6n5)CC3)CC4)nc2c1[N+](=O)[O-] | >70.3 µg/mL
Cc1cc(=O)n(CCOCP(=O)(O)O)c(N)n1 | <10 µM
N#Cc1c(N2CCCC2)nsc1-c1ccccc1 | 7 µg/mL
C[N+]1(C)CCN(c2cccc(N3CC[N+](C)(C)CC3)c2[N+](=O)[O-])CC1 | >330.4 µg/mL
CSc1nsc(-c2ccccc2)c1C(=O)O | 500 µg/mL
Nc1nc(OCCOCP(=O)(O)O)cc(OCCOCP(=O)(O)O)n1 | <10 µM
Cc1nc(C2CCCCCC2)c([N+](=O)[O-])c(N2CC[N+]3(CC2)CC[N+]2(CCN(c4nc(C)nc(C5CCCCCC5)c4[N+](=O)[O-])CC2)CC3)n1 | >261.2 µg/mL
Nc1cc(OCCOCP(=O)(O)O)nc(N)n1 | <10 µM
O=C(CCCc1ccccc1)N1CC[N+]2(CC1)CC[N+]1(CCN(C(=O)CCCc3ccccc3)CC1)CC2 | >339.2 µg/mL
CSc1nsc(-c2ccccc2)c1C#N | 20 µg/mL
Nc1nc(NC2CC2)cc(OCCOCP(=O)(O)O)n1 | <10 µM
CC1=C(CC/C(C)=C/CC[C@@]2(C)CC[C@@H]([C@@H](C)C(=O)O)OO2)C(C)(C)CCC1 | <0.392 µM